# PSTVd stem 3 mutant pool in Nicotiana benthamiana

The pool varies stem 3 of the PSTVd intermediate strain in the pattern GUGGUUCCGNANNCNN; wild type is GUGGUUCCGGAACCGC (upper and lower strand joined, each 5' to 3', the first 8 letters being the upper strand).

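A pool of all variants was put on leaves of three Nicotiana benthamiana plants. Samples came from the inoculated region at 5 days, the leaf margin at 10 and upper systemic leaves at 12.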

Values are reads per thousand in the sample; higher means more abundant, 0 means not found.
Each site shows the three plants.
"Pool" is the share in the plasmid pool used as inoculum, on the same scale.
The inoculated region was read from the minus strand, the other sites from the plus strand.
Wild type was 17.3 per thousand in the pool and the most common sequence in every sample (inoculated region 330, 345, 235; leaf margin 794, 766, 816; systemic leaves 830, 792, 869).
Sequences that differ at fixed positions probably stem from PCR or sequencing errors, and defective variants can be carried along by functional ones.
With 27,691-54,225 reads a sample, very low values are single reads.

sequence | pool | inoculated region | leaf margin | systemic leaves
GUGGUUCCGUAAGCAC | 0.754 | 0.320 0.453 0.270 | 0 0.0318 0 | 0 0 0
GUGGUUCCGUAAGCAG | 0.908 | 0.320 0.302 0.108 | 0.0283 0 0 | 0 0 0
GUGGUUCCGUAAGCAU | 1.51 | 1.09 0.819 1.22 | 0 0 0 | 0 0 0
GUGGUUCCGUAAGCCA | 1.08 | 0.613 0.518 0.567 | 0 0.0318 0.0722 | 0 0 0
GUGGUUCCGUAAGCCC | 1.00 | 0.373 0.410 0.270 | 0.0283 0 0.506 | 0 0 0
GUGGUUCCGUAAGCCG | 0.723 | 0.267 0.388 0.270 | 0 0.0318 0 | 0.112 0.0369 0.0486
GUGGUUCCGUAAGCCU | 1.85 | 0.613 0.755 0.784 | 0 0 0 | 0.149 0 0.0243
GUGGUUCCGUAAGCGA | 1.99 | 1.25 1.27 0.784 | 0.425 0.573 0.469 | 0.112 0.0184 0.0243
GUGGUUCCGUAAGCGC | 1.40 | 0.480 0.690 0.567 | 0.0850 0.0318 0 | 0.0746 0.0184 0.0243
GUGGUUCCGUAAGCGG | 0.831 | 0.533 0.259 0.243 | 0.0283 0 0.0722 | 0.205 0 0
GUGGUUCCGUAAGCGU | 0.846 | 0.320 0.518 0.378 | 0 0 0 | 0 0 0
GUGGUUCCGUAAGCUA | 0.970 | 0.480 0.237 0.135 | 0 0 0 | 0 0 0
GUGGUUCCGUAAGCUC | 0.985 | 0.347 0.237 0.324 | 0 0 0.0361 | 0 0 0
GUGGUUCCGUAAGCUG | 0.662 | 0.400 0.280 0.216 | 0 0 0 | 0 0 0
GUGGUUCCGUAAGCUU | 0.970 | 0.267 0.280 0.243 | 0 0.0318 0 | 0 0 0
GUGGUUCCGUAAUCAA | 0.846 | 0.986 0.776 0.865 | 0 0 0.0361 | 0 0 0
GUGGUUCCGUAAUCAC | 1.08 | 0.906 0.604 1.32 | 0.878 0 0 | 0.0559 0 0
GUGGUUCCGUAAUCAG | 0.769 | 0.746 0.496 0.892 | 0.0283 0 0.289 | 0 0 0
GUGGUUCCGUAAUCAU | 0.846 | 0.720 0.712 0.811 | 0 0.923 0.469 | 0 0 0
GUGGUUCCGUAAUCCA | 1.17 | 0.586 0.323 0.432 | 0 0 0.0361 | 0 0 0
GUGGUUCCGUAAUCCC | 0.739 | 0.400 0.518 0.351 | 0 0.0318 0 | 0.0373 0 0
GUGGUUCCGUAAUCCG | 0.769 | 0.293 0.431 0.162 | 0.312 0 0 | 0 0 0
GUGGUUCCGUAAUCCU | 0.831 | 0.640 0.474 0.730 | 0.0567 0 0 | 0 0 0
GUGGUUCCGUAAUCGA | 1.45 | 0.826 0.884 0.919 | 0.0283 0 0.0361 | 0.112 0.0184 0
GUGGUUCCGUAAUCGC | 0.954 | 0.453 0.431 0.405 | 0 0 0 | 0 0 0
GUGGUUCCGUAAUCGG | 0.877 | 0.320 0.410 0.297 | 0 0 0 | 0 0 0
GUGGUUCCGUAAUCGU | 0.754 | 0.826 0.582 0.892 | 0.0283 0 0.253 | 0 0 0
GUGGUUCCGUAAUCUA | 1.34 | 0.400 0.453 0.189 | 0 0 0 | 0.149 0 0
GUGGUUCCGUAAUCUC | 0.708 | 0.240 0.367 0.108 | 0 0.0318 0 | 0 0 0
GUGGUUCCGUAAUCUG | 0.769 | 0.373 0.280 0.270 | 0 0 0.144 | 0 0 0
GUGGUUCCGUAAUCUU | 0.954 | 0.773 1.04 1.13 | 0 0.891 0.253 | 0.0746 0 0
GUGGUUCCGUACACAA | 0.862 | 0.373 0.259 0.243 | 0 0 0 | 0 0 0
GUGGUUCCGUACACAC | 0.862 | 0.453 0.280 0.297 | 0 0 0 | 0 0 0
GUGGUUCCGUACACAG | 0.769 | 0.373 0.280 0.108 | 0 0 0 | 0 0 0
GUGGUUCCGUACACAU | 1.26 | 0.586 0.668 0.973 | 0.0283 0 0 | 0 0 0
GUGGUUCCGUACACCA | 1.02 | 0.267 0.302 0.243 | 0 0.0636 0 | 0 0 0
GUGGUUCCGUACACCC | 0.816 | 0.320 0.410 0.243 | 0 0.0636 0.0361 | 0 0 0
GUGGUUCCGUACACCG | 0.831 | 0.400 0.345 0.189 | 0 0.0318 0 | 0 0 0
GUGGUUCCGUACACCU | 0.754 | 0.400 0.410 0.0540 | 0.0283 0.0318 0 | 0 0 0
GUGGUUCCGUACACGA | 0.754 | 0.240 0.431 0.270 | 0 0 0 | 0 0 0
GUGGUUCCGUACACGC | 0.785 | 0.453 0.367 0.189 | 0.0283 0 0 | 0.0186 0 0
GUGGUUCCGUACACGG | 0.954 | 0.453 0.302 0.351 | 0 0.0318 0 | 0 0 0
GUGGUUCCGUACACGU | 1.63 | 0.293 0.625 0.432 | 0 0.0318 0.0361 | 0.168 0 0
GUGGUUCCGUACACUA | 0.893 | 0.480 0.367 0.108 | 0 0 0 | 0 0 0
GUGGUUCCGUACACUC | 0.846 | 0.347 0.388 0.324 | 0.0283 0.0636 0 | 0 0 0
GUGGUUCCGUACACUG | 0.723 | 0.240 0.280 0.135 | 0 0 0 | 0 0 0
GUGGUUCCGUACACUU | 0.954 | 0.320 0.323 0.297 | 0 0 0.0361 | 0 0 0
GUGGUUCCGUACCCAA | 0.816 | 0.347 0.367 0.297 | 0 0 0.0361 | 0 0 0
GUGGUUCCGUACCCAC | 0.846 | 0.267 0.323 0.270 | 0 0 0 | 0 0 0
GUGGUUCCGUACCCAG | 0.985 | 0.453 0.302 0.378 | 0 0.0318 0 | 0 0 0
GUGGUUCCGUACCCAU | 0.877 | 1.09 1.04 1.24 | 0.0283 0 0 | 0.0746 0 0
GUGGUUCCGUACCCCA | 0.893 | 0.373 0.604 0.432 | 0.0567 0.0318 0 | 0 0 0
GUGGUUCCGUACCCCC | 1.28 | 0.426 0.518 0.405 | 0.0283 0.0636 0.0361 | 0 0 0
GUGGUUCCGUACCCCG | 1.23 | 0.693 0.539 0.432 | 0.0283 0 0 | 0 0 0
GUGGUUCCGUACCCCU | 0.893 | 0.720 0.690 0.919 | 0.227 0.0318 0.469 | 0 0 0
GUGGUUCCGUACCCGA | 0.908 | 0.320 0.173 0.378 | 0 0.0318 0 | 0 0 0
GUGGUUCCGUACCCGC | 0.800 | 0.453 0.323 0.270 | 0.0283 0 0 | 0 0.0184 0
GUGGUUCCGUACCCGG | 0.785 | 0.426 0.280 0.351 | 0 0.0318 0 | 0 0 0
GUGGUUCCGUACCCGU | 1.00 | 0.347 0.323 0.324 | 0 0 0 | 0 0 0
GUGGUUCCGUACCCUA | 0.769 | 0.213 0.453 0.162 | 0.0283 0 0 | 0 0 0
GUGGUUCCGUACCCUC | 0.893 | 0.267 0.539 0.351 | 0 0 0.0361 | 0 0 0
GUGGUUCCGUACCCUG | 0.816 | 0.400 0.453 0.297 | 0 0.0318 0.0361 | 0 0 0

The first 8 entries again:

{"sequence": "GUGGUUCCGUAAGCAC", "pool": "0.754", "inoculated region": "0.320 0.453 0.270", "leaf margin": "0 0.0318 0", "systemic leaves": "0 0 0"}
{"sequence": "GUGGUUCCGUAAGCAG", "pool": "0.908", "inoculated region": "0.320 0.302 0.108", "leaf margin": "0.0283 0 0", "systemic leaves": "0 0 0"}
{"sequence": "GUGGUUCCGUAAGCAU", "pool": "1.51", "inoculated region": "1.09 0.819 1.22", "leaf margin": "0 0 0", "systemic leaves": "0 0 0"}
{"sequence": "GUGGUUCCGUAAGCCA", "pool": "1.08", "inoculated region": "0.613 0.518 0.567", "leaf margin": "0 0.0318 0.0722", "systemic leaves": "0 0 0"}
{"sequence": "GUGGUUCCGUAAGCCC", "pool": "1.00", "inoculated region": "0.373 0.410 0.270", "leaf margin": "0.0283 0 0.506", "systemic leaves": "0 0 0"}
{"sequence": "GUGGUUCCGUAAGCCG", "pool": "0.723", "inoculated region": "0.267 0.388 0.270", "leaf margin": "0 0.0318 0", "systemic leaves": "0.112 0.0369 0.0486"}
{"sequence": "GUGGUUCCGUAAGCCU", "pool": "1.85", "inoculated region": "0.613 0.755 0.784", "leaf margin": "0 0 0", "systemic leaves": "0.149 0 0.0243"}
{"sequence": "GUGGUUCCGUAAGCGA", "pool": "1.99", "inoculated region": "1.25 1.27 0.784", "leaf margin": "0.425 0.573 0.469", "systemic leaves": "0.112 0.0184 0.0243"}

Reference: Wu et al. 2024, doi:10.1371/journal.ppat.1012142.